Compound potency records, mixed from different reports. Data source: NIAID ChemDB in PubChem.

Common to all: tests on isolated targets; species: Hepatitis C virus; protein: NS3/NS4A protease

An empty or dashed field is not shown.

structure | strain | tested at | measure | method | result
O=C(Nc1ccc(Br)cc1)c1c(O)cc(O)c([N+](=O)[O-])c1O |  |  | IC50 | HPLC | 19.4 µg/mL
C=C[C@@H]1C[C@]1(NC(=O)[C@@H]1C[C@@H](Oc2cc(-c3ccccc3)nc3cc(OC)ccc23)CN1C(=O)[C@@H](NC(=O)CC)C(C)(C)C)C(=O)NS(=O)(=O)C1CC1 | BMS |  | IC50 |  | <0.05 µM
C=CC1CC1(NC(=O)[C@@H]1C[C@@H](OC(=O)n2c3ccccc3c3ccccc32)CN1C(=O)[C@@H](NC(=O)OC(C)(C)C)C(C)(C)C)C(=O)NS(=O)(=O)C1CC1 | BMS/H77C/J416S |  | IC50 |  | <0.1 µM
Cc1ccc(NC(=O)c2c(O)cc(O)c([N+](=O)[O-])c2O)cc1 |  |  | IC50 | HPLC | 24.5 µg/mL
C=CC1CC1(NC(=O)[C@@H]1C[C@@H](OC(=O)Nc2cc(C(F)(F)F)ccc2N2CCC(C(F)(F)F)CC2)CN1C(=O)[C@@H](NC(=O)OC(C)(C)C)C(C)(C)C)C(=O)NS(=O)(=O)C1CC1 | BMS/H77C/J416S |  | IC50 |  | <0.1 µM
C=C[C@H]1C[C@@]1(NC(=O)[C@@H]1C[C@@H](Oc2cc(-c3ccccc3)nc3cc(OC)ccc23)CN1C(=O)[C@@H](NC(=O)OC(C)(C)C)C(C)(C)C)C(=O)NS(=O)(=O)C1(C=C(C)C)CC1 | BMS |  | IC50 |  | <0.05 µM
C=CC1CC1(NC(=O)[C@@H]1C[C@@H](OC(=O)Nc2cc(C)ccc2-n2nccn2)CN1C(=O)[C@@H](NC(=O)OC(C)(C)C)C(C)(C)C)C(=O)NS(=O)(=O)C1CC1 | BMS/H77C/J416S |  | IC50 |  | <0.1 µM
C=CC1C[C@@]1(NC(=O)[C@@H]1C[C@@H](Oc2cc(-c3ccccc3)nc3cc(OC)ccc23)CN1C(=O)[C@@H](NC(=O)CC(C)(C)C)C(C)(C)C)C(=O)NS(=O)(=O)C1(Cc2ccccc2)CC1 | BMS |  | IC50 |  | 0.05–0.5 µM
C=C[C@@H]1C[C@]1(NC(=O)[C@@H]1C[C@@H](Oc2cc(-c3ccccc3)nc3cc(OC)ccc23)CN1C(=O)[C@@H](NC(=O)OC(C)(C)C)C(C)(C)C)C(=O)NS(=O)(=O)c1cccc(Br)c1 | BMS |  | IC50 |  | <0.05 µM
C=CC1CC1(NC(=O)[C@@H]1C[C@@H](OC(=O)Nc2c(F)cccc2F)CN1C(=O)[C@@H](NC(=O)OC(C)(C)C)C(C)(C)C)C(=O)O | BMS/H77C/J416S |  | IC50 |  | >10 µM
C=CCCCCCCCC1(S(=O)(=O)NC(=O)[C@]2(NC(=O)[C@@H]3C[C@@H](Oc4cc(-c5ccccc5)nc5cc(OC)ccc45)CN3C(=O)[C@@H](NC(=O)OC(C)(C)C)C(C)(C)C)C[C@@H]2C=C)CC1 | BMS |  | IC50 |  | <0.05 µM
C=C[C@@H]1C[C@]1(NC(=O)[C@@H]1C[C@@H](Oc2cc(-c3ccccc3)nc3cc(OC)ccc23)CN1C(=O)[C@H](CC(C)C)NC(=O)OC(C)(C)C)C(=O)NS(=O)(=O)C1CC1 | BMS |  | IC50 |  | <0.05 µM
CCCCCCCNC(=O)c1c(O)cc(O)c([N+](=O)[O-])c1O |  | 100 µg/mL | inhibition | HPLC | 86.8%
COc1ccc2c(O[C@@H]3C[C@@H](C(=O)NC4(C(=O)NS(=O)(=O)C5(Nc6ccccc6)CC5)CC4)N(C(=O)[C@@H](NC(=O)OC(C)(C)C)C(C)(C)C)C3)cc(-c3ccccc3)nc2c1 | BMS |  | IC50 |  | 0.5–5 µM
C=CC1CC1(NC(=O)[C@@H]1C[C@@H](Oc2cc(-c3ccccc3)nc3cc(OC)ccc23)CN1C(=O)[C@H](CC(C)C)NC(=O)OC(C)(C)C)C(=O)NS(=O)(=O)C1CC1 | BMS |  | IC50 |  | <0.05 µM
C=CC1CC1(NC(=O)[C@@H]1C[C@@H](OC(=O)Nc2cc(C(C)=O)ccc2N2CCC(C(=O)OCC)CC2)CN1C(=O)[C@@H](NC(=O)OC(C)(C)C)C(C)(C)C)C(=O)NS(=O)(=O)C1CC1 | BMS/H77C/J416S |  | IC50 |  | <0.1 µM
O=C(NCCOc1ccc(Oc2ccccc2)cc1)c1c(O)cc(O)c([N+](=O)[O-])c1O |  | 100 µg/mL | inhibition | HPLC | 71%
C=C[C@H]1C[C@@]1(NC(=O)[C@@H]1C[C@@H](Oc2cc(-c3ccccc3)nc3cc(OC)ccc23)CN1C(=O)[C@@H](NC(=O)OC(C)(C)C)C(C)(C)C)C(=O)NS(=O)(=O)C1(C(=C)C)CC1 | BMS |  | IC50 |  | <0.05 µM
C=C[C@@H]1C[C@]1(NC(=O)[C@@H]1C[C@@H](Oc2cc(-c3ccccc3)nc3cc(OC)ccc23)CN1C(=O)[C@@H](NC(=O)OC(C)(C)C)C(C)(C)C)C(=O)NS(=O)(=O)c1c(C(C)C)cc(C(C)C)cc1C(C)C | BMS |  | IC50 |  | <5 µM
C=CC1CC1(NC(=O)[C@@H]1C[C@@H](OC(=O)Nc2cccc(C(F)(F)F)c2)CN1C(=O)[C@@H](NC(=O)OC(C)(C)C)C(C)(C)C)C(=O)NS(=O)(=O)C1CC1 | BMS/H77C/J416S |  | IC50 |  | 0.1–1 µM
C=CC1CC1(NC(=O)[C@@H]1C[C@@H](Oc2cc(-c3ccccc3)nc3cc(OC)ccc23)CN1C(=O)[C@@H](NC(=O)OC(C)(C)C)C(C)C)C(=O)NS(=O)(=O)C1CC1 | BMS |  | IC50 |  | <0.05 µM
Cc1cccc(NC(=O)c2c(O)cc(O)c([N+](=O)[O-])c2O)c1 |  |  | IC50 | HPLC | 44.9 µg/mL
C=CC1CC1(NC(=O)[C@@H]1C[C@@H](OC(=O)Nc2cccc(C(F)(F)F)c2)CN1C(=O)[C@@H](NC(=O)OC(C)(C)C)C(C)(C)C)C(=O)O | BMS/H77C/J416S |  | IC50 |  | >10 µM
C=C1C[C@]1(NC(=O)[C@@H]1C[C@@H](Oc2cc(-c3ccccc3)nc3cc(OC)ccc23)CN1C(=O)[C@@H](NC(=O)OC(C)(C)C)C(C)(C)C)C(=O)NS(=O)(=O)c1cccc(C(F)(F)F)c1 | BMS |  | IC50 |  | <0.05 µM
C=CC1CC1(NC(=O)[C@@H]1C[C@@H](OC(=O)Nc2ccc(OC)cc2)CN1C(=O)[C@@H](NC(=O)OC(C)(C)C)C(C)(C)C)C(=O)NS(=O)(=O)C1CC1 | BMS/H77C/J416S |  | IC50 |  | 0.1–1 µM
C=C[C@@H]1C[C@]1(NC(=O)[C@@H]1C[C@@H](Oc2cc(-c3ccccc3)nc3cc(OC)ccc23)CN1C(=O)[C@@H](NC(=O)OC(C)(C)C)C(C)(C)C)C(=O)NS(=O)(=O)CC | BMS |  | IC50 |  | <0.05 µM

Repeating the first 2 entries:

structure | strain | tested at | measure | method | result
O=C(Nc1ccc(Br)cc1)c1c(O)cc(O)c([N+](=O)[O-])c1O |  |  | IC50 | HPLC | 19.4 µg/mL
C=C[C@@H]1C[C@]1(NC(=O)[C@@H]1C[C@@H](Oc2cc(-c3ccccc3)nc3cc(OC)ccc23)CN1C(=O)[C@@H](NC(=O)CC)C(C)(C)C)C(=O)NS(=O)(=O)C1CC1 | BMS |  | IC50 |  | <0.05 µM

ICn is the concentration giving n% inhibition. Conditions beyond the fields shown may differ between rows. Percent inhibition refers to the dose given; in toxicity tests it is the harm to the cells. Two numbers with a dash give a range or band.